A mixed list of measured activities; the numbers were collected in NIAID ChemDB.

Shared fields: growth or infection tests; organism: HIV-1; measure: fold resistance

Blank or dashed fields: not listed here. Conditions beyond the fields shown may differ between rows. Fold resistance: result on the changed form divided by that on wild type.

smiles | strain or isolate | mutations | cell line | method | value
CC(C)(C)NC(=O)[C@@H]1C[C@@H]2CCCC[C@@H]2CN1C[C@@H](O)[C@H](Cc1ccccc1)NC(=O)[C@H](CC(N)=O)NC(=O)c1ccc2ccccc2n1 | NL4-3 | PR-V82T | MT-4 | p24 | 1
COc1ccc2c(c1)N(C(=O)OC(C)C)[C@@H](CSC)C(=S)N2 | A1(RT-G190E) | RT-G190E | H9 | p24 | >1430
Cc1occc1C(=S)Nc1ccc(Cl)c(/C=N/OC(C)(C)C)c1 | 3TC-RS (RT-M184I) | RT-M184I | CEM + CEM-SS | cytopathic effect / XTT | 1
C#C[C@]1(CO)O[C@@H](n2cc(I)c(=O)[nH]c2=O)C[C@@H]1O | - | RT-M184V | HeLa | β-galactosidase | 0.568
Cc1cc(S(N)(=O)=O)ccc1NC(=O)COc1ccc(Cl)cc1C(=O)c1cc(Cl)cc(C#N)c1 | NNRTI-resistant (RT E138K) | RT-E138K | MAGI | β-galactosidase | 2.5
CC(C)Nc1cccnc1N1CCN(C(=O)c2cc3cc(NS(C)(=O)=O)ccc3[nH]2)CC1 | C-1 (RT-K101E) | RT-K101E | CEM | cytopathic effect | 1
Cc1cn([C@H]2C[C@H](N=[N+]=[N-])[C@@H](CO)O2)c(=O)[nH]c1=O | NL4-3(RT-4XAZT+Y181C) | RT-D67N K70R Y181C T215Y K219Q | CEM + CEM-SS | XTT | 40
CC(C)CN(C[C@@H](O)[C@H](Cc1ccccc1)NC(=O)[C@H](CC(N)=O)NC(=O)c1ccc2ccccc2n1)C(=O)NC(C)(C)C | NL4-3 | PR-L10R M46I | MT-4 | p24 | 1
Nc1ccn([C@@H]2CO[C@H](CO)S2)c(=O)n1 | RF | RT-V106I Y188C | C8166 | p24 | 0.4
Cc1cn([C@H]2C[C@H](N=[N+]=[N-])[C@@H](CO)O2)c(=O)[nH]c1=O | RT A62V/V75I/F77L/F116Y/Q151M | RT-A62V V75I F77L F116Y Q151M | MT-2 | p24 | 162
O=c1[nH]cnc2c1ncn2[C@H]1CC[C@@H](CO)O1 | BCF07 | RT-A98G V106I Y181C | PBMC | - | 0.588
O=S(=O)(c1ccccc1)c1ccccc1 | Dihydrocostatolide-resistant (RT-L100I) | RT-L100I | CEM + CEM-SS | XTT | 14.4
COc1cc(C(F)(F)F)cc(S(=O)(=O)c2cccc(N)c2C#N)c1 | - | RT-K103N P225H | HeLa + HELA CD4+ | β-galactosidase | 393
C#C[C@]1(CO)O[C@@H](n2cc(C)c(=O)[nH]c2=O)C[C@@H]1O | - | RT-L74V | HeLa | β-galactosidase | 1.89
O=S(=O)(c1ccccc1)c1ccccc1 | IIIB | RT-Y181C | CEM + CEM-SS | cytopathic effect / XTT | 31
O=c1[nH]cnc2c1ncn2[C@H]1CC[C@@H](CO)O1 | HXB2 | RT-M41L L74V V106A T215Y | C8166 | p24 | 3.61
CC(C)Nc1cccnc1N1CCN(C(=O)c2cc3cc(NS(C)(=O)=O)ccc3[nH]2)CC1 | B8 (RT K101I K103N Y181C G190A) | RT-K101I K103N Y181C G190A | H9 | p24 | >55.6
Nc1nc2c(ncn2[C@H]2CO[C@@H](CO)O2)c(=O)[nH]1 | RT D67N 69D 70R 74V 215F 219Q 103N 181C | RT-D67N T69D K70R L74V K103N Y181C T215F K219Q | - | - | 1.9
Cc1cn([C@H]2C[C@H](N=[N+]=[N-])[C@@H](CO)O2)c(=O)[nH]c1=O | A012D | - | HT4 + HT4-6C | plaque count | 206
Nc1ccn([C@H]2CC[C@@H](CO)O2)c(=O)n1 | BCF01 | RT-A98G K103R Y181C | PBMC | - | 0.133
Cc1cn([C@H]2C[C@H](N=[N+]=[N-])[C@@H](CO)O2)c(=O)[nH]c1=O | Q-1 (RT T139K Y181C Y188D/Y) | RT-T139K Y181C Y188D/Y | CEM | cytopathic effect | 22
Nc1nc(=O)n([C@@H]2CS[C@H](CO)O2)cc1F | 74V (RT-L74V) | RT-L74V | HT4 + HT4 LacZ-1 | - | 1.2
Cc1cc(O)cc(S(=O)(=O)c2cccc(N)c2C#N)c1 | - | RT-V106A Y181C | HeLa + HELA CD4+ | β-galactosidase | 33.3
CC[C@H]1C(=O)Nc2ccc(F)cc2N1C(=O)OC(C)C | A-0 (RT-L100I) | RT-L100I | CEM | cytopathic effect | 1
Nc1nc(=O)n([C@@H]2CC[C@H](CO)O2)cc1F | 74V (RT-L74V) | RT-L74V | HT4 + HT4 LacZ-1 | - | 2
Cc1cc(Br)cc(S(=O)(=O)c2cccc(N)c2C#N)c1 | - | RT-K103N | HeLa + HELA CD4+ | β-galactosidase | 100
Cc1ccnc2c1NC(=O)c1cccnc1N2C1CC1 | HXB2 | RT-M41L Y181C T215Y | HT4 + HT4 LacZ-1 | plaque count | 167
Nc1ncnc2c1ncn2[C@@H]1O[C@H](CO)C[C@@H]1F | L214F(RT-L214F) | RT-L214F | MT-2 | p24 | 0.9
C/C=C/CSc1cc(NC(=S)c2ccsc2C)ccc1Cl | Diphenyl sulfone-resistant (RT-Y181C) | RT-Y181C | CEM + CEM-SS | cytopathic effect / XTT | >10
Cc1cn([C@H]2C[C@H](N=[N+]=[N-])[C@@H](CO)O2)c(=O)[nH]c1=O | BCF03 | RT-A98G Y181C | PBMC | - | 1
O=c1[nH]cnc2c1ncn2[C@H]1CC[C@@H](CO)O1 | L214F(RT-L214F) | RT-L214F | MT-2 | p24 | 0.9
C=C[C@]1(CO)O[C@@H](n2cc(C)c(=O)[nH]c2=O)C[C@@H]1O | - | RT-M184V | HeLa | β-galactosidase | <12.3
Cc1ccnc2c1NC(=O)c1cccnc1N2C1CC1 | Calanolide A-resistant (RT T139I) | RT-T139I | CEM + CEM-SS | XTT | 3
Cc1cn([C@H]2C[C@H](N=[N+]=[N-])[C@@H](CO)O2)c(=O)[nH]c1=O | NL4-3 | RT-Y188C | CEM + CEM-SS | cytopathic effect / XTT | 6
Cc1ccnc2c1NC(=O)c1cccnc1N2C1CC1 | NL4-3 (RT V108I) | RT-V108I | CEM + CEM-SS | cytopathic effect / XTT | 3
Nc1ncnc2c1ncn2CCOCP(=O)(O)O | P119S(RT-P119S) | RT-P119S | MT-2 | p24 | 1.1
CCc1c(Sc2ccccn2)n(COCc2ccccc2)c(=O)[nH]c1=O | IIIB | RT-V90I T139I P225S | CEM + CEM-SS | cytopathic effect / XTT | 0.06
Nc1ccn([C@H]2C[C@H](O)[C@](CO)(CF)O2)c(=O)n1 | RT-M41L/T215Y | RT-M41L T215Y | HeLa | β-galactosidase | 0.761
Cc1cc(Cl)cc(S(=O)(=O)c2cccc(N)c2C#N)c1 | - | RT-K103N V108I | HeLa + HELA CD4+ | β-galactosidase | 3670

A second listing of 2 rows from above:

smiles,strain or isolate,mutations,cell line,method,value
Nc1nc(=O)n([C@@H]2CC[C@H](CO)O2)cc1F,74V (RT-L74V),RT-L74V,HT4 + HT4 LacZ-1,-,2
Nc1nc(=O)n([C@@H]2CS[C@H](CO)O2)cc1F,74V (RT-L74V),RT-L74V,HT4 + HT4 LacZ-1,-,1.2